This is a selection; strong and weak results do not stand in their true shares. Results with a measured potency or affinity are listed apart. Activity calls are given as the source filed them. Cut-off read from the data, not from the text of the source: active = inhibition above about 13%; inconclusive = no clear call, values can overlap the other calls; inactive = below that.
biological target: Bifunctional protein GlmU (Mycobacterium tuberculosis (strain ATCC 25618 / H37Rv)) (UniProt P9WMN3); test: inhibition of mycobacterial GlmU enzyme – biochemical, glucosamine-1-phosphate acetyltransferase (AID 1376);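 note: 0% = complete reaction with vehicle and 100% = reaction without substrate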; conditions: M. tuberculosis GlmU acetyltransferase enzyme assay; active compounds read high;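 tested at 30 µM in the primary screen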

Sequences of proteins named here, by UniProt entry; tags and fusion partners are left off. A change or cut given only in a name is not applied to a line headed by its entry.
UniProt P9WMN3: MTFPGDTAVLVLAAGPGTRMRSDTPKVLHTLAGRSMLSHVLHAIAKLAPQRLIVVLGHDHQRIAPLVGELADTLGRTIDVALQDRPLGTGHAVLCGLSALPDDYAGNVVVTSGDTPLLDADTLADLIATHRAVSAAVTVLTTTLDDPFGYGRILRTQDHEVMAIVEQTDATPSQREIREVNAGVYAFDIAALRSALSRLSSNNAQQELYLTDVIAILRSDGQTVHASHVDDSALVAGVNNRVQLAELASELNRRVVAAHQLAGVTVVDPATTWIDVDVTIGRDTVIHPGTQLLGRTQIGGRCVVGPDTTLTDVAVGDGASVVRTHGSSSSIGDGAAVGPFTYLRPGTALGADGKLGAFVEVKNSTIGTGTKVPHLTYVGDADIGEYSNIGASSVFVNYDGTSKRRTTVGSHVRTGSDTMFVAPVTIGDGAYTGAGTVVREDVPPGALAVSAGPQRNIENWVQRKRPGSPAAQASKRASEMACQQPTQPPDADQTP

Compound	inhibition
CCCOP(=S)(Nc1nc(N)cc(=O)[nH]1)OCCC	inactive: 3.59%
COc1cc(C2NCCC3(OCCO3)C2(C)C)cc(OC)c1OC (stereo not given)	inactive: -4.51%
CCOP(=O)(Nc1cccc2ccccc12)OCC	inactive: 3.8%
Cc1c2c(nc3ccccc13)SC(C(Cl)Cl)C2 (stereo not given)	inactive: -0.45%
O=C(OC1CN2CCC1CC2)C12CC3CC(CC(C3)C1)C2 (stereo not given)	inactive: 3.58%
Cc1cc(=O)[nH]c(N[N+](=O)[O-])n1	inactive: -4.08%
COc1ccc2nc(NP(=O)(c3ccccc3)c3ccccc3)sc2c1	inactive: 3.38%
COc1cc(I)ccc1[As](=O)(O)O	inactive: -0.03%
COc1ccc(N/C(=N/P(=O)(N2CCOCC2)N2CCOCC2)N2CCOCC2)cc1	inactive: 2.59%
C[As](=O)(O)c1cccc(C(=O)O)c1	inactive: 2.97%
O=[As](O)(c1ccc(O)cc1)c1ccccc1O	inactive: 2.95%
Cc1ccc(OP(=O)(Nc2ccc([N+](=O)[O-])cn2)Oc2ccc(C)cc2)cc1	inactive: -1.92%
Cc1ccc2nc3c(c(C)c2c1)CC(C(Cl)Cl)S3 (stereo not given)	inactive: 4.78%
ClCCSc1nnc(-c2cccnc2)o1	inactive: -0.28%
CC(C)c1ccc(OP(=O)(Nc2ccccn2)Oc2ccccc2F)cc1 (stereo not given)	inactive: 0.25%
CC(C)NC(=O)NP(=O)(Oc1ccccc1)Oc1ccccc1	inactive: -1.2%
CCN(CC)C(=S)SC(NC=O)C(Cl)(Cl)Cl (stereo not given)	inactive: 1.1%
O=[N+]([O-])c1cc([N+](=O)[O-])c(-c2ccn[nH]2)s1	inactive: -3.32%
Cc1cc(SC(NC(=O)c2ccccc2)C(Cl)(Cl)Cl)nc(C(C)C)n1 (stereo not given)	inactive: 3.3%
Cc1cc(SC(NC=O)C(Cl)(Cl)Cl)ncn1 (stereo not given)	inactive: 4.44%
O=P(Nc1ccccn1)(c1cccc2ccccc12)c1cccc2ccccc12	inactive: -1.81%
O=[N+]([O-])c1ccc(Nc2ccc(Oc3ccc([N+](=O)[O-])cc3[N+](=O)[O-])cc2)c([N+](=O)[O-])c1	inactive: 12.7%
COP1(=S)c2c(C)nn(CCC#N)c2N=C(c2ccc(F)cc2)N1C (stereo not given)	inactive: -0.86%
CCOC(=O)c1ccc(NC(=O)C(C)(CCl)SC)cc1 (stereo not given)	inactive: -4.31%
CCC(C)N(CC(C)C)C(=S)SC(NC(C)=O)C(Cl)(Cl)Cl (stereo not given)	inactive: 2.25%
